According to patent US20260102351A1, “LYOPHILIZED FORMULATION OF CROFELEMER AND METHODS OF TREATMENT USING THE SAME” (priority 2022, published 2026):

Assay: Sweetener studies (high intensity sweetener excipients)
Details: 100 mg/mL crofelemer solution

In the case of `OC[C@H]1O[C@H](O[C@]2(CCl)O[C@H](CCl)[C@@H](O)[C@@H]2O)[C@H](O)[C@@H](O)[C@H]1Cl` [Sucralose], the “Usage found to overcome the intensity of bitterness of crofelemer” value is reported as 10 to 15 mg/mL.
